Measurements: patent publication US20050014706A1, “Method of treating tuberculosis” (priority 2003, published 2005)
Which two values form the index is not stated here.

Assays:
[1] = test system: J774.1 macrophage cell line; assay: Cytotoxicity against J774.1 macrophage cell line; type: cell-based, murine; settings: selectivity index IC50:MIC
VERO cells = assay: Cytotoxicity against VERO cells (MTS, 72 hours); settings: selectivity index IC50:MIC

CC[C@H]1OC(=O)[C@H](C)[C@@H](O[C@H]2C[C@@](C)(OC)[C@@H](O)[C@H](C)O2)[C@H](C)[C@@H](O[C@@H]2O[C@H](C)C[C@H](N(C)C)[C@H]2O)[C@](C)(OC)C[C@@H](C)C(=O)[C@H](C)[C@H]2N(CCCCn3cnc(-c4cccnc4)c3)C(=O)O[C@]12C [RU69874]
J774 SI ([1]; Table 1a): 154.18 | Vero SI (VERO cells; Table 1a): 70.95

CC[C@H]1OC(=O)[C@H](C)[C@@H](O[C@H]2C[C@@](C)(OC)[C@@H](O)[C@H](C)O2)[C@H](C)[C@@H](O[C@@H]2O[C@H](C)C[C@H](N(C)C)[C@H]2O)[C@](C)(OC)C[C@@H](C)C(=O)[C@H](C)[C@@H](O)[C@]1(C)O [Clarithromycin, reference compound]
Vero SI (VERO cells; Table 2a): 5.12

CC[C@H]1OC(=O)[C@H](C)C(OC2CC(C)(OC)[C@@H](O)[C@H](C)O2)[C@H](C)[C@@H](O[C@@H]2O[C@H](C)C[C@H](N(C)C)[C@H]2O)[C@](C)(OC)C[C@@H](C)C(=O)[C@H](C)[C@H]2N(NCCCc3ccnc4ccccc34)C(=O)O[C@]12C (some centres unmarked) [RU66252]
J774 SI ([1]; Table 1a): 64.52 | Vero SI (VERO cells; Table 1a): 99.72

cethromycin [ABT773, reference compound]
J774 SI ([1]; Table 1a): 34.1 | Vero SI (VERO cells; Table 1a): >34

CC[C@H]1OC(=O)[C@H](C)[C@@H](O[C@H]2CC(C)(OC)[C@@H](O)[C@H](C)O2)[C@H](C)[C@@H](O[C@@H]2O[C@H](C)C[C@H](N(C)C)[C@H]2O)[C@](C)(OC)C[C@@H](C)C(=O)[C@H](C)[C@H]2N(CCCCc3ccnc4ccccc34)C(=O)O[C@]12C (some centres unmarked) [RU66080]
J774 SI ([1]; Table 1a): 11.14 | Vero SI (VERO cells; Table 1a): 18.41

CC[C@H]1OC(=O)[C@H](C)C(=O)[C@H](C)[C@@H](O[C@@H]2O[C@H](C)C[C@H](N(C)C)[C@H]2O)[C@](C)(OC)C[C@@H](C)C(=O)[C@H](C)[C@H]2N(CCCCn3cnc(-c4cccnc4)c3)C(=O)O[C@]12C [Telithromycin, reference compound]
J774 SI ([1]; Table 1a): 2.2

CC[C@H]1OC(=O)[C@H](C)C(=O)[C@H](C)[C@@H](O[C@@H]2O[C@H](C)C[C@H](N(C)C)[C@H]2O)[C@](C)(OC)C[C@@H](C)C(=NOC2CCCN(C/C=C/c3ccc(-c4ccccc4)cc3)C2)[C@H](C)[C@@H](O)[C@]1(C)O (some centres unmarked) [RU61804]
J774 SI ([1]; Table 2a): 7.8 | Vero SI (VERO cells; Table 2a): 18.24

CCCCCCCCCCN1CCCC(O/N=C2\[C@H](C)C[C@@](C)(OC)[C@H](O[C@@H]3O[C@H](C)C[C@H](N(C)C)[C@H]3O)[C@@H](C)C(=O)[C@@H](C)C(=O)O[C@H](CC)[C@@](C)(O)[C@H](O)[C@H]2C)C1 (some centres unmarked) [RU60887]
J774 SI ([1]; Table 2a): 37.6 | Vero SI (VERO cells; Table 2a): 220.64

CC[C@H]1OC(=O)[C@H](C)[C@@H](O[C@H]2C[C@@](C)(OC)[C@@H](O)[C@H](C)O2)[C@H](C)[C@@H](O[C@@H]2O[C@H](C)C[C@H](N(C)C)[C@H]2O)[C@](C)(O)C[C@@H](C)/C(=N\OCOCc2ccccc2)[C@H](C)[C@@H](O)[C@]1(C)O [RU29558]
Vero SI (VERO cells; Table 2a): 4.02

CC[C@H]1OC(=O)[C@@](C)(F)C(=O)[C@H](C)[C@@H](O[C@@H]2O[C@H](C)C[C@H](N(C)C)[C@H]2O)[C@](C)(OCC#Cc2cc(-c3cnc4ccccc4c3)no2)C[C@@H](C)C(=O)[C@H](C)[C@H]2NC(=O)O[C@@]21C [Compound A323348]
J774 SI ([1]; Table 1a): 40.18 | Vero SI (VERO cells; Table 1a): 63.92
